From patent US9745335B2 (Blirt S.A., priority 2012, dated 2017) come the findings set out here.

The series concerns Human erythrocytes. In words: hemotoxicity determination (hemolytic activity). To be noted: for WS EH50/IC50 (selectivity coefficient): EH50 divided by antifungal IC50; for WE WS(z)/WS(AmB) (effectivity factor): selectivity coefficient of derivative relative to native antibiotic. The series is classed as cell-based. Here is the method:
The hemotoxicity determination was carried out by the serial dilutions method, according to the procedure described earlier (Slisz, M., et al., E., J Antibiot 57: 669-678 (2004). Human erythrocytes were suspended in the solution of saline to obtain a cell density of suspension 2×10^7/ml. Suitable amounts of diluted solutions of compounds were added to the cell suspension in tubes and were incubated at 37° C. for 30 minutes and then centrifuged (1700×g, 10 min, 4° C.). The concentration of hemoglobin in supernatant after centrifugation of erythrocytes suspension were determined by measuring the absorbance at wavelength λ=540 nm (A540). The maximum level of hemolysis was obtained after incubation of cells suspension in the presence of 0.1% Tritone X-100 (control sample). […] From these graphs, the EH50 values were read which are the interpolated concentrations of compound, for which the A540 value is exactly 50% of the A540 value measured for the control sample.

A value given as a limit tells only on which side of the number the result lay.

With `C[C@@H]1[C@H](O)[C@@H](C)/C=C/C=C/C=C/C=C/C=C/C=C/C=C/[C@H](O[C@@H]2O[C@H](C)[C@@H](O)[C@H](NC(=O)[C@@H](N)CSC(C)(C)C)[C@@H]2O)C[C@@H]2O[C@](O)(C[C@@H](O)C[C@@H](O)[C@H](O)CC[C@@H](O)C[C@@H](O)CC(=O)O[C@H]1C)C[C@H](O)[C@H]2C(=O)O` [Compound A37, N-L-(S-tert-butyl)cystylamphotericin B], the “WS EH50/IC50 (selectivity coefficient)” value was more than 78.12 and the “WE WS(z)/WS(AmB) (effectivity factor)” value was more than 4.40.

Turning to `C[C@@H]1[C@H](O)[C@@H](C)/C=C/C=C/C=C/C=C/C=C/C=C/C=C/[C@H](O[C@@H]2O[C@H](C)[C@@H](O)[C@H](NC(=O)C(N)Cc3ccccc3F)[C@@H]2O)C[C@@H]2O[C@](O)(C[C@@H](O)C[C@@H](O)[C@H](O)CC[C@@H](O)C[C@@H](O)CC(=O)O[C@H]1C)C[C@H](O)[C@H]2C(=O)O` (stereo partly drawn) [Compound A38, N-o-fluorophenylalanylamphotericin B], the “WS EH50/IC50 (selectivity coefficient)” value is reported as more than 52.08 and the “WE WS(z)/WS(AmB) (effectivity factor)” value is given as more than 2.93.

Take “N-(4-N,N-diethylaminobenzyl)amphotericin B [Compound A19]”: the “WE WS(z)/WS(AmB) (effectivity factor)” value is more than 10.62.

Consider “N-(L-N,N-diethylphenylalanyl)amphotericin B [Compound A42]”, for which the “WE WS(z)/WS(AmB) (effectivity factor)” value is reported as more than 2.05.

For the molecule “N-(L-N,N-dimethylphenylalanyl)amphotericin B [Compound A43]”, the “WE WS(z)/WS(AmB) (effectivity factor)” value was more than 3.94.

“N-D-β-naphtylalanylamphotericin B [Compound A32]”: the “WS EH50/IC50 (selectivity coefficient)” value was more than 33.22 and the “WE WS(z)/WS(AmB) (effectivity factor)” value is on record as more than 1.87.
